Assay results taken from publication PMC8205227 (ACS Infectious Diseases, 2021).

System: Mtb
Experiment: Mycobacterium tuberculosis compound uptake (intracellular accumulation)
Assay type: cell-based
Conditions: 5 μM and 50 μM, 24 h

| Compound | Intracellular accumulation in Mtb | Intracellular abundance compared with 2b |
| --- | --- | --- |
| O=c1cc(-c2ccc(O)c(O)c2)oc2cc(O)c(O)cc12 [Compound 2b, reference compound] | accumulate intracellularly in Mtb in a dose-dependent manner | – |
| Cc1nn(-c2ccccc2)c(O)c1Sc1nc2cc(Cl)ccc2o1 [Compound 1f, 4-(5-Chloro-1,3-benzoxazol-2-yl)sulfanyl-5-methyl-2-phenyl-pyrazol-3-ol] | accumulate intracellularly in Mtb in a dose-dependent manner | substantially greater than 2b |
